# In the supplement of paper PMC12637763:
# This is one part of the list. Env chains of viruses from a treatment-interruption trial, translated from the printed DNA. IC50 / IC80 of two broadly neutralizing antibodies; lower = more sensitive virus; >50 µg/ml means not reached and <0.001 µg/ml is below the lowest dose. No active / inactive call.
# B1: HIV-1 Env, reservoir clone (protein)
# chain: MKVRVMQRNWQHLGRWGLLFLGLLICCNATEQLWVTVYYGVPVWKEATTTLFCASDAKGYEKEAHNVWATHACVPTDPNPQEIPLVNVTENFNMWKNNMVEQMQTDIISLWDQSLKPCVKLTPLCVTLNCNNNIKWANGNNSTNPDMKNCSFNMTTEVRDKRLKVSALFYKIDLTPINKSSGEYRLINCNTSTIKQACPKVSWDPIPIHYCAPAGYAILKCRDKNFNGTGPCNNVSTVQCTHGIKPVVSTQLLLNGSLAEEDIVIRTQNISDNAKTIIVSLNESVSINCIRPGNNTRKSIHIGPGQVFYANNDIIGDIRKAFCTLNGTQWNKTLDRVKAKLRSLFNKTTIIFAQPSGGDLEVTMHSFNCRGEFFYCNTSGLFNDIDSNITLPCRIKQIINMWQGVGQAMYTAPIAGNITCVSNITGLLLTRDGGPDNDNETFRPGGGDMRDNWRSELYKYKVVEIEPLGIAPTRAKRQVVRRERRAVGIGAMFLGFLGAAGSTMGAASIALTVQARQLLSGIVQQQNNLLRAIEAQQHLLQLTVWGIKQLQARVLAVERYLKDQQLLGVWGCSGKLICTTSVPWNSSWSNKSQQEIWDNMTWMDWEREISNYSQTIYKLLEESQYQQDKNEQELLALDKWASLWNWFDISNWLWYIRIFIMIVGGLIGLRIVFAVLAIVNRVRKGYSPLSLQTLIPNSRGPDRPEGIEEGGGEQDRDRSVRLVNGFLALVWDDLRNLCLFSYRLLRDFILIAARTVDRGLRGGWKALKYLWNLTQYWSRELKDSAISLYNSIAIAVAEGTDRIIEALQIIVRGVLHIPRRIRQGLERALL
# B2: HIV-1 Env, reservoir clone (protein)
# chain: MKAKETRKNYQHLWRWGIMLLGMLMICSAASQLWVTVYYGVPVWKEATTTLFCASDAKAYDTEVHNVWATHACVPTDPNPQEVVLGNVTEDFNMWKNNMVEQMHEDIISLWDQSLKPCVKITPLCVTLNCTEYRNATSTTWGQMEKGEIKNCSFNVTTNIKNKMQKEYALFYKLDVVPIGDNSTNYRLIKCNTSAITQACPKVSFQPIPIHYCAPAGFAILKCNNKTFNGLGPCTNVSTVQCTHGIRPVVSTQLLLNGSLAEEEIVIRSENFSDNAKIIIVHLNASIEINCTRPNNNTRKSITIGPGRAFYATGDVIGDIRQAHCNISGEKWNEALKQIAIKLREQFGHNKTIVFNQSSGGDPEIVAHSVNCGGEFFYCNSTKLFNSTWTRNNTTESNETITLPCKIKQIINLWQEVGKAIYAPPISGPIRCSSNITGLLLTRDGGNTSETNKETFRPGGGDMRDNWRSELYKYKVVKIEPLGVAPTKAKRRVVQRERRAVGTFGALFLGFLGTAGSTMGAASITLTVQARQLLSGIVQQQNNLLKAIEAQQHLLQLTVWGIKQLQARVLAVERYLKDQQLLGLWGCSGKLICTTTVPWNASWSNKSLEQIWENMTWMQWEKEIDNYTGIIYSLISESQLQQEKNEKELLELDKWASLWTWFDITNWLWYIRIFIMIVGGLIGLRIVFAVLSIVNRVRKGYSPLSFQTRLPTPRGPDRPEGIEEEGGERGRDTSIRLVDGFLALIWDDLRNLCLFSYHHLRDLILIVVRTVELLGRRGWELLKYWWNLLKYWSQELKKSAVSLFNAAAIAVAEGTDRVIEVVQRAGRGILHVPRRIRQGLERALQ
# B3: HIV-1 Env, reservoir clone (protein)
# chain: MKAKETRKNYQHLWRWGIMLLGMLMICSAASQLWVTVYYGVPVWKEATTTLFCASDAKAYDTEVHNVWATHACVPTDPNPQEVVLGNVTEDFNMWKNNMVEQMHEDIISLWDQSLKPCVKITPLCVTLNCTEYSNATSTTGGQMEKGEIKNCSFNVTTNIKNKMQKEYALFYKLDVVPIGDNSTNYRLIKCNTSAITQACPKVSFQPIPIHYCAPAGFAILKCNNKTFNGLGPCTNVSTVQCTHGIRPVVSTQLLLNGSLAEEEIVIRSENFSDNAKNIIVHLNASIEINCTRPNNNTRKSITIGPGRTFYATGDVIGDIRQAHCNISGEKWNEALKQIAIKLREQFGHNKTIVFNHSSGGDPEIVAHSVNCGGEFFYCNSTKLFNSTWHSNGTQNNTTESNETITLPCKIKQIINLWQEVGKAIYAPPISGPIRCSSNITGLLLTRDGGNTSETNKETFRPGGGDMRDNWRSELYKYKVVKIEPLGVAPTKAKRRVVQRERRAVGTFGALFLGFLGTAGSTMGAASITLTVQARQLLSGIVQQQNNLLKAIEAQQHLLQLTVWGIKQLQARVLAVERYLKDQQLLGLWGCSGKLICTTTVPWNASWSNKSLEQIWENMTWMQWEKEIDNYTGIIYSLISESQLQQEKNEKELLELDKWASLWTWFDITNWLWYIRIFIMIVGGLIGLRIVFAVLSIVNRVRKGYSPLSFQTRLPTPRGPDRPEGIEEEGGERGRDTSIRLVDGFLALIWDDLRNLCLFSYHHLRDLILIVVRTVELLGRRGWELLKYWWNLLKYWSQELKKSAVSLFNAAAIAVAEGTDRVIEVVQRAGRGILHVPRRIRQGLERALQ
# B4: HIV-1 Env, reservoir clone (protein)
# chain: MKAKETRKNYQHLWRWGIMLLGMLIICSAASQLWVTVYYGVPVWKEATTTLFCASDAKAYDTEVHNVWATHACVPTDPNPQEVVLGNVTEDFNMWKNNMVEQMHEDIISLWDQSLKPCVKITPLCVTLNCTEYSNATSTTWGQMEKGEIKNCSFNVTTNIKNKMQKEYALFYKLDVVQIGDNSTNYRLIKCNTSAITQACPKVSFQPIPIHYCAPAGFAILKCNNKTFNGLGPCTNVSTVQCTHGIRPVVSTQLLLNGSLAEEEIVIRSENFSDNAKNIIVHLNASIEINCTRPNNNTRKSITIGPGRAFYATGDVIGDIRQAHCNISGEKWNEALKQIAIKLREQFGHDKTIVFNQSSGGDPEIVAHSVNCGGEFFYCNSTKLFNSTWHSNGTQNNTTESNETITLPCKIKQIINLWQEVGKAIYAPPISGPIRCSSNITGLLLTRDGGHTSETNKETFRPGGGDMRDNWRSELYKYKVVKIEPLGVAPTKAKRRVVQRERRAVGTFGALFLGFLGTAGSTMGAASITLTVQARQLLSGIVQQQNNLLKAIEAQQHLLQLTVWGIKQLQARVLAVERCLKDQQLLGLWGCSGKLICTTTVPWNASWSNKSLEQIWENMTWMQWEKEIDNYTGIIYSLISESQLQQEKNEKELLELDKWASLWTWFDITNWLWYIKIFIMIVGGLIGLRIVFAVLSIVNKVRKGYSPLSFQTRLPTPRGPDRPEGIEEEGGERGRDTSIRLVDGFLALIWDDLRNLCLFSYHHLRDLILIVVRTVELLGRRGWELLKYWWNLLKYWSQELKKSAVSLFNAAAIAVAEGTDRVIEVVQRAGRGILHVPRRIRQGLERALQ
# B5: HIV-1 Env, reservoir clone (protein)
# chain: MKAKETRKNYQHLWRWGIMLLGMLMICSAASQLWVTVYYGVPVWKEATTTLFCASDAKAYDTEVHNVWATHACVPTDPNPQEVVLGNVTEDFNMWKNNMVEQMHEDIISLWDQSLKPCVKITPLCVTLNCTEYSNATSTTWGQMEKGEIKNCSFNVTTNIKNKMQKEYALFYKLDVVQIGDNSTNYRLIKCNTSAITQACPKVSFQPIPIHYCAPAGFAILKCNNKTFNGLGPCTNVSTVQCTHGIRPVVSTQLLLNGSLAEEEIVIRSENFSDNAKNIIVHLNASIEINCTRPNNNTRKSITIGPGRAFYATGDVIGDIRQAHCNISGEKWNEALKQIAIKLREQFGHDKTIVFNQSSGGDPEIVAHSVNCGGEFFYCNSTKLFNSTWHSNGTQNNTTESNETITLPCKIKQIINLWQEVGKAIYAPPISGPIRCSSNITGLLLTRDGGHTSETNKETFRPGGGDMRDNWRSELYKYKVVKIEPLGVAPTKAKRRVVQRERRAVGTFGALFLGFLGTAGSTMGAASITLTVQARQLLSGIVQQQNNLLKAIEAQQHLLQLTVWGIKQLQARVLAVERYLKDQQLLGLWGCSGKLICTTTVPWNASWSNKSLEQIWENMTWMQWEKEIDNYTGIIYSLISESQLQQEKNEKELLELDKWASLWTWFDITNWLWYIKIFIMIVGGLIGLRIVFAVLSIVNKVRKGYSPLSFQTRLPTPRGPDRPEGIEEEGGERGRDTSIRLVDGFLALIWDDLRNLCLFSYHHLRDLILIVVRTVELLGRRGWELLKYWWNLLKYWSQELKKSAVSLFNAAAIAVAEGTDRVIEVVQRAGRGILHVPRRIRQGLERALQ
# B6: HIV-1 Env, reservoir clone (protein)
# chain: MKVKVTMRNYQNLWRGGTLLLGMLMICSGAEQLWVTVYYGVPVWKEANTTLFCASDAKAYDTEVHNVWATHACVPTDPSPQEVVLENVTEDFNIWKNNMVEQMHEDIISLWDQSLKPCVKLTPLCVTLNCSNVNNQTGTNNNSSHGKDVEGEMKNCSFNVTTNIRDKIKREYALLYKLDIVPIDNDNTSYTLTSCNTSVITQACPKVSFEPIPIHYCAPAGFAILKCNNKTFNGKGPCTNVSTVQCTHGIRPVVSTQLLLNGSLAEDVVLRSENFTNNAKTIIVQLKEPVIINCTRPNNNTRKSIPMGPGRAWYTTGEIIGDIRQAHCNISKAQWNKTLQQVVTKLREQFGNKTIVFNQPTGGDPEIVMHSFNCGGEFFYCNTSKLFNSTWNNSTQGINSTGESNTTITIQCKIKQIINMWQQVGKAMYAPPIAGQIKCSSNITGLLLTRDGGGNKTENETFRPAGGDMRDNWRSELYKYKVVQIKPLGIAPTKAKRRVVQREKRAVGIGALFLGFLGAAGSTMGAAAVTLTVQARQLLSGIVQQQNNLLRAIEAQQHMLQLTVWGIKQLQARVLAVERYLRDQQLLGIWGCSGKLICTTTVPWNNSWSNKSLDDIWGNMTWMEWEKEIDNYTYTIYKLIEESQNQQEKNEQELLELDKWANLWNWFDITNWLWYIKIFIIIVGGLIGLRIVFAVLSIVNRVRQGYSPLSLQTLLPAPRGPDRPGEIEEEGGERDKDTSVRLVNGFLAIIWDDLRSLCLFSYRHLRDLLLIVTRIVGLLGHRGWEVLRYWWNLLQYWIQELKNSAVSLLNVTAIAVAEGTDRVIEIAQRACRAVLHIPRRIRQGLERGLL
# Target: antibody 10-1074
# Assay: neutralization IC50; higher = virus less sensitive to the antibody
# Protocol: (§1)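 Pseudovirus bearing the Env chain mixed with antibody, from 50 µg/ml in fivefold dilutions, on TZM-bl reporter cells, in duplicate.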
row,Binder,neutralization IC50 [mg/L]
1,B1,> 50
2,B2,< 0.001
3,B3,< 0.001
4,B4,< 0.001
5,B5,< 0.001
6,B6,0.004

# Target: antibody 3BNC117
# Assay: as above
# Protocol: as §1
row,Binder,neutralization IC50 [mg/L]
1,B1,0.043
2,B2,0.021
3,B3,0.027
4,B4,0.091
5,B5,0.05
6,B6,0.075

# Target: antibody 10-1074
# Assay: neutralization IC80; higher = virus less sensitive to the antibody
# Protocol: as §1
row,Binder,neutralization IC80 [mg/L]
1,B1,> 50
2,B2,0.001
3,B3,< 0.001
4,B4,0.003
5,B5,0.005
6,B6,0.011

# Target: antibody 3BNC117
# Assay: as above
# Protocol: as §1
row,Binder,neutralization IC80 [mg/L]
1,B1,0.707
2,B2,0.117
3,B3,0.169
4,B4,> 50
5,B5,> 50
6,B6,0.248
